Laboratory results taken from patent US20240109955A1 (published 2024).

B1: A23-58.1HC/58.1LC_93VGLTG (antibody, V domains shown)
VH: QMQLVQSGPEVKKPGTSVKVSCKASGFTFTSSAVQWVRQRQRLEWIGWIVVGSGNTNYAQKFQERVTITRDMSTSTAYMELSSLRSEDTAVYYCAAPNCSNVVCYDGFDIWGQGTMVTVSS
VL: EIVLTQSPGTLSLSPGERATLSCRASQSVSSSYLAWYQQKPGQAPRLLIYSASSRATGIPDRFSGSGSGTDFTLTISRLEPEDFAVYFCQQYVGLTGWTFGQGTKVEIK
B2: MX831 (bispecific antibody)
chain: DIQMTQSPSSVSASVGDRVIITCRASQGISSWLAWYQQKPGKAPKVLIYDASSLQSGVPSRFSGSGYGTDFTLTISSLQPEDSATYYCQQAKSFPITFGQGTRLEIKGGSSGEIVLTQSPGTLSLSPGERATLSCRASQSVSSSYLAWYQQKPGQAPRLLIYSASSRATGIPDRFSGSGSGTDFTLTISRLEPEDFAVYFCQQYGGLTGWTFGQGTKVEIKGGGGSGGSGSGGGGSASGSGQMQLVQSGPEVKKPGTSVKVSCKASGFTFTSSAVQWVRQRQRLEWIGWIVVGSGNTNYAQKFQERVTITRDMSTSTAYMELSSLRSEDTAVYYCAAPNCSNVVCYDGFDIWGQGTMVTVSSGGSSGQVQLVESGGGVVQPGRSLRLSCAASGFTFSSYAFHWVRQAPGKGLEWVAVISYDGSNQYYADSVKGRFTISRDNSKNTLYLQMNSLRADDTAVYYCARDLAIAVAGTWHYYNGMDVWGQGTTVTVSSASGGSGDKTHTCPPCPAPELLGGPSVFLFPPKPKDTLMISRTPEVTCVVVDVSHEDPEVKFNWYVDGVEVHNAKTKPREEQYNSYVVSVLTVLHQDWLNGKEYKCKVSNKALPAPIEKTISKAKGQPREPQVYTLPPSRDELTKNQVSLTCLVKGFYPSDIAVEWESNGQPENNYKTTPPVLDSDGSFFKKLTVDKSRWQQGNVFSCSVLHEALHSHYTQKSLSLSPG
B3: MX838 (other)
chain 1: QTVVTQEPSFSVSPGGTVTLTCGLSSGSVSTAYFPSWYQQTPGQAPRTLIYGTNTRSSGVPDRFSGSILGNKAALTITGAQADDESDYYCVLYMGRGIVVFGGGTKLTVLGGSSGEIVLTQSPGTLSLSPGERATLSCRASQSVSSSYLAWYQQKPGQAPRLLIYSASSRATGIPDRFSGSGSGTDFTLTISRLEPEDFAVYFCQQYGGLTGWTFGQGTKVEIKGGGGSGGSGSGGGGSASGSGQMQLVQSGPEVKKPGTSVKVSCKASGFTFTSSAVQWVRQRQRLEWIGWIVVGSGNTNYAQKFQERVTITRDMSTSTAYMELSSLRSEDTAVYYCAAPNCSNVVCYDGFDIWGQGTMVTVSSGGSSGQVQLVESGGGVVQPGRSLRLSCAASGFTLSSYGMHWVRQAPGKGLEWVAVISYDGSNKYYVDSVKGRFTISRDNSKNTLYLQMNSLRAEDTAVYYCRWAYWELLPDYYYGMDVWGQGTTVTVSSASGGSGDKTHTCPPCPAPELLGGPSVFLFPPKPKDTLMISRTPEVTCVVVDVSHEDPEVKFNWYVDGVEVHNAKTKPREEQYNSYVVSVLTVLHQDWLNGKEYKCKVSNKALPAPIEKTISKAKGQPREPQVYTLPPCRDELTKNQVSLWCLVKGFYPSDIAVEWESNGQPENNYKTTPPVLDSDGSFFKKLTVDKSRWQQGNVFSCSVLHEALHSHYTQKSLSLSPG
chain 2: DIQMTQSPSSVSASVGDRVIITCRASQGISSWLAWYQQKPGKAPKVLIYDASSLQSGVPSRFSGSGYGTDFTLTISSLQPEDSATYYCQQAKSFPITFGQGTRLEIKGGSSGEIVLTQSPGTLSLSPGERATLSCRASQSVSSSYLAWYQQKPGQAPRLLIYSASSRATGIPDRFSGSGSGTDFTLTISRLEPEDFAVYFCQQYGGLTGWTFGQGTKVEIKGGGGSGGSGSGGGGSASGSGQMQLVQSGPEVKKPGTSVKVSCKASGFTFTSSAVQWVRQRQRLEWIGWIVVGSGNTNYAQKFQERVTITRDMSTSTAYMELSSLRSEDTAVYYCAAPNCSNVVCYDGFDIWGQGTMVTVSSGGSSGQVQLVESGGGVVQPGRSLRLSCAASGFTFSSYAFHWVRQAPGKGLEWVAVISYDGSNQYYADSVKGRFTISRDNSKNTLYLQMNSLRADDTAVYYCARDLAIAVAGTWHYYNGMDVWGQGTTVTVSSASGGSGDKTHTCPPCPAPELLGGPSVFLFPPKPKDTLMISRTPEVTCVVVDVSHEDPEVKFNWYVDGVEVHNAKTKPREEQYNSYVVSVLTVLHQDWLNGKEYKCKVSNKALPAPIEKTISKAKGQPREPQVCTLPPSRDELTKNQVSLSCAVKGFYPSDIAVEWESNGQPENNYKTTPPVLDSDGSFFLVSKLTVDKSRWQQGNVFSCSVLHEALHSHYTQKSLSLSPG
B4: MX830 + 831 (other)
chain 1: QTVVTQEPSFSVSPGGTVTLTCGLSSGSVSTAYFPSWYQQTPGQAPRTLIYGTNTRSSGVPDRFSGSILGNKAALTITGAQADDESDYYCVLYMGRGIVVFGGGTKLTVLGGSSGEIVLTQSPGTLSLSPGERATLSCRASQSVSSSYLAWYQQKPGQAPRLLIYSASSRATGIPDRFSGSGSGTDFTLTISRLEPEDFAVYFCQQYGGLTGWTFGQGTKVEIKGGGGSGGSGSGGGGSASGSGQMQLVQSGPEVKKPGTSVKVSCKASGFTFTSSAVQWVRQRQRLEWIGWIVVGSGNTNYAQKFQERVTITRDMSTSTAYMELSSLRSEDTAVYYCAAPNCSNVVCYDGFDIWGQGTMVTVSSGGSSGQVQLVESGGGVVQPGRSLRLSCAASGFTLSSYGMHWVRQAPGKGLEWVAVISYDGSNKYYVDSVKGRFTISRDNSKNTLYLQMNSLRAEDTAVYYCRWAYWELLPDYYYGMDVWGQGTTVTVSSASGGSGDKTHTCPPCPAPELLGGPSVFLFPPKPKDTLMISRTPEVTCVVVDVSHEDPEVKFNWYVDGVEVHNAKTKPREEQYNSYVVSVLTVLHQDWLNGKEYKCKVSNKALPAPIEKTISKAKGQPREPQVYTLPPSRDELTKNQVSLTCLVKGFYPSDIAVEWESNGQPENNYKTTPPVLDSDGSFFKKLTVDKSRWQQGNVFSCSVLHEALHSHYTQKSLSLSPG
chain 2: DIQMTQSPSSVSASVGDRVIITCRASQGISSWLAWYQQKPGKAPKVLIYDASSLQSGVPSRFSGSGYGTDFTLTISSLQPEDSATYYCQQAKSFPITFGQGTRLEIKGGSSGEIVLTQSPGTLSLSPGERATLSCRASQSVSSSYLAWYQQKPGQAPRLLIYSASSRATGIPDRFSGSGSGTDFTLTISRLEPEDFAVYFCQQYGGLTGWTFGQGTKVEIKGGGGSGGSGSGGGGSASGSGQMQLVQSGPEVKKPGTSVKVSCKASGFTFTSSAVQWVRQRQRLEWIGWIVVGSGNTNYAQKFQERVTITRDMSTSTAYMELSSLRSEDTAVYYCAAPNCSNVVCYDGFDIWGQGTMVTVSSGGSSGQVQLVESGGGVVQPGRSLRLSCAASGFTFSSYAFHWVRQAPGKGLEWVAVISYDGSNQYYADSVKGRFTISRDNSKNTLYLQMNSLRADDTAVYYCARDLAIAVAGTWHYYNGMDVWGQGTTVTVSSASGGSGDKTHTCPPCPAPELLGGPSVFLFPPKPKDTLMISRTPEVTCVVVDVSHEDPEVKFNWYVDGVEVHNAKTKPREEQYNSYVVSVLTVLHQDWLNGKEYKCKVSNKALPAPIEKTISKAKGQPREPQVYTLPPSRDELTKNQVSLTCLVKGFYPSDIAVEWESNGQPENNYKTTPPVLDSDGSFFKKLTVDKSRWQQGNVFSCSVLHEALHSHYTQKSLSLSPG
B5: MX830 (bispecific antibody)
chain: QTVVTQEPSFSVSPGGTVTLTCGLSSGSVSTAYFPSWYQQTPGQAPRTLIYGTNTRSSGVPDRFSGSILGNKAALTITGAQADDESDYYCVLYMGRGIVVFGGGTKLTVLGGSSGEIVLTQSPGTLSLSPGERATLSCRASQSVSSSYLAWYQQKPGQAPRLLIYSASSRATGIPDRFSGSGSGTDFTLTISRLEPEDFAVYFCQQYGGLTGWTFGQGTKVEIKGGGGSGGSGSGGGGSASGSGQMQLVQSGPEVKKPGTSVKVSCKASGFTFTSSAVQWVRQRQRLEWIGWIVVGSGNTNYAQKFQERVTITRDMSTSTAYMELSSLRSEDTAVYYCAAPNCSNVVCYDGFDIWGQGTMVTVSSGGSSGQVQLVESGGGVVQPGRSLRLSCAASGFTLSSYGMHWVRQAPGKGLEWVAVISYDGSNKYYVDSVKGRFTISRDNSKNTLYLQMNSLRAEDTAVYYCRWAYWELLPDYYYGMDVWGQGTTVTVSSASGGSGDKTHTCPPCPAPELLGGPSVFLFPPKPKDTLMISRTPEVTCVVVDVSHEDPEVKFNWYVDGVEVHNAKTKPREEQYNSYVVSVLTVLHQDWLNGKEYKCKVSNKALPAPIEKTISKAKGQPREPQVYTLPPSRDELTKNQVSLTCLVKGFYPSDIAVEWESNGQPENNYKTTPPVLDSDGSFFKKLTVDKSRWQQGNVFSCSVLHEALHSHYTQKSLSLSPG
B6: MX828 + 829 (other)
chain 1: QTVVTQEPSFSVSPGGTVTLTCGLSSGSVSTAYFPSWYQQTPGQAPRTLIYGTNTRSSGVPDRFSGSILGNKAALTITGAQADDESDYYCVLYMGRGIVVFGGGTKLTVLGGSSGEIVLTQSPGTLSLSPGERATLSCRASQSVSSSYLAWYQQKPGQAPRLLIYSASSRATGIPDRFSGSGSGTDFTLTISRLEPEDFAVYFCQQYVGLTGWTFGQGTKVEIKGGGGSGGSGSGGGGSASGSGQMQLVQSGPEVKKPGTSVKVSCKASGFTFTSSAVQWVRQRQRLEWIGWIVVGSGNTNYAQKFQERVTITRDMSTSTAYMELSSLRSEDTAVYYCAAPNCSNVVCYDGFDIWGQGTMVTVSSGGSSGQVQLVESGGGVVQPGRSLRLSCAASGFTLSSYGMHWVRQAPGKGLEWVAVISYDGSNKYYVDSVKGRFTISRDNSKNTLYLQMNSLRAEDTAVYYCRWAYWELLPDYYYGMDVWGQGTTVTVSSASGGSGDKTHTCPPCPAPELLGGPSVFLFPPKPKDTLMISRTPEVTCVVVDVSHEDPEVKFNWYVDGVEVHNAKTKPREEQYNSYVVSVLTVLHQDWLNGKEYKCKVSNKALPAPIEKTISKAKGQPREPQVYTLPPSRDELTKNQVSLTCLVKGFYPSDIAVEWESNGQPENNYKTTPPVLDSDGSFFKKLTVDKSRWQQGNVFSCSVLHEALHSHYTQKSLSLSPG
chain 2: DIQMTQSPSSVSASVGDRVIITCRASQGISSWLAWYQQKPGKAPKVLIYDASSLQSGVPSRFSGSGYGTDFTLTISSLQPEDSATYYCQQAKSFPITFGQGTRLEIKGGSSGEIVLTQSPGTLSLSPGERATLSCRASQSVSSSYLAWYQQKPGQAPRLLIYSASSRATGIPDRFSGSGSGTDFTLTISRLEPEDFAVYFCQQYVGLTGWTFGQGTKVEIKGGGGSGGSGSGGGGSASGSGQMQLVQSGPEVKKPGTSVKVSCKASGFTFTSSAVQWVRQRQRLEWIGWIVVGSGNTNYAQKFQERVTITRDMSTSTAYMELSSLRSEDTAVYYCAAPNCSNVVCYDGFDIWGQGTMVTVSSGGSSGQVQLVESGGGVVQPGRSLRLSCAASGFTFSSYAFHWVRQAPGKGLEWVAVISYDGSNQYYADSVKGRFTISRDNSKNTLYLQMNSLRADDTAVYYCARDLAIAVAGTWHYYNGMDVWGQGTTVTVSSASGGSGDKTHTCPPCPAPELLGGPSVFLFPPKPKDTLMISRTPEVTCVVVDVSHEDPEVKFNWYVDGVEVHNAKTKPREEQYNSYVVSVLTVLHQDWLNGKEYKCKVSNKALPAPIEKTISKAKGQPREPQVYTLPPSRDELTKNQVSLTCLVKGFYPSDIAVEWESNGQPENNYKTTPPVLDSDGSFFKKLTVDKSRWQQGNVFSCSVLHEALHSHYTQKSLSLSPG

How the values were obtained:
[1] = target: SARS-CoV-2 spike protein, D614G mutant (SARS-CoV-2, UniProt P0DTC2 14-1273); test: cell-based or functional assay
[2] = target: SARS-CoV-2 spike protein, Omicron sublineage BA.2.75.2 (R346T, F486S) (SARS-CoV-2, UniProt P0DTC2); test: cell-based or functional assay

Binder	IC50, pseudovirus neutralization [1] [nM]	IC80, pseudovirus neutralization [1] [nM]	IC50, pseudovirus neutralization [2] [nM]	IC80, pseudovirus neutralization [2] [nM]
B1	0	2		
B2	3			
B3			> 10000	> 10000
B4	2	4		
B5	5			
B6	3	4		
